SI data for four molecules are collected here from paper PMC7661526, “Antibiofilm effects of N,O-acetals derived from 2-amino-1,4-naphthoquinone are associated with downregulation of important global virulence regulators in methicillin-resistant Staphylococcus aureus” (Scientific Reports, 2020).

This data set concerns Vero cell line. Description: Cytotoxicity assay (MTT). The note with it: SI = CC50/MIC; Vero cells. As for the experimental part: Plates were incubated for 1 h, the supernatant again removed, and 200 µL dimethyl sulfoxide (DMSO) were added to each well to dissolve the formazan crystals for 10 min. Absorbance was measured at 570 nm using an ELISA reader (Thermo Plate, TP-READER, Thermo Fisher Scientific). […] The selectivity index (SI) was calculated as follows: SI (µg/mL) = CC50/MIC[17]. Three independent experiments were performed in triplicate. Controls were performed using 2% (v/v) DMSO only.

Molecule `COCNC1=CC(=O)c2ccccc2C1=O` [7a, 2-(methoxymethyl)-amino-1,4-naphthoquinone] had an SI of 0.61.
The value for `NC1=CC(=O)c2ccccc2C1=O` [6a, 2-amino-1,4-naphthoquinone] was 0.76; that for `C#CCOCNC1=CC(=O)c2ccccc2C1=O` [7c, 2-(propynyloxymethyl)-amino-1,4-naphthoquinone] was 0.31.
As for `CCOCNC1=CC(=O)c2ccccc2C1=O` [7b, 2-(ethoxymethyl)-amino-1,4-naphthoquinone], the SI was found to be 1.72.
